Results of unrelated studies side by side (data: NIAID ChemDB).

Shared fields: tests in culture; agent: HIV-1; cells: CEM; endpoint: EC50

Blank or dashed fields: not listed here.

compound	strain	mutations	method	result
O=C1c2ccccc2C(=O)N1[C@H]1CC2CC3CC(C2)C1C3	IIIB		syncytia	>4 µg/mL
Cc1ccccc1C(=S)Nc1ccc(Cl)c(C(=O)OC(C)C)c1		RT-L100I	syncytia	9.6 µM
O=C1NC[C@@H]2C34CC5CC(CC(C5)[C@H]3[C@]2(O)c2ccccc21)C4	IIIB		syncytia	>20 µg/mL
Cc1ccsc1C(=S)Nc1ccc(Cl)c(C(=O)OC2CCCCC2)c1		RT-L100I	syncytia	1.6 µM
CCC(C)Oc1ccc(NC(=O)c2ccccc2SSc2ccccc2C(=O)Nc2ccc(OC(C)CC)cc2)cc1			cytopathic effect / XTT	30 µM
CC(C)OC(=O)c1cc(NC(=S)c2cccs2)ccc1Cl		RT-Y181C	syncytia	0.756 µM
Cc1ccc(C)c(CSc2c(Cl)ccc[n+]2[O-])c1	RF		syncytia	0.16 µg/mL
CCC1=C(C(=O)CCC2CCCCC2)[C@H](c2ccc(O)c(Cl)c2)NC(=O)N1			p24 / ELISA	≤1 µM
CCC(CC)OC(=O)c1cc(NC(=S)c2ccoc2C)ccc1Cl		RT-E138K	syncytia	0.437 µM
O=C1c2ccccc2C(=O)N1CCCC1C2CC3CC(C2)CC1C3	IIIB		syncytia	>4 µg/mL
CN(C)CCCNC(=O)c1ccccc1SSc1ccccc1C(=O)NCCCN(C)C			cytopathic effect / XTT	6.5 µM
CCOC(=O)c1cc(NC(=O)C2=C(C)OCCS2)ccc1Cl	PYR-resistant (RT Y181C)	RT-Y181C	syncytia	>10 µg/mL
O=C1c2ccccc2C(=O)N1C12CC3CC(CC(C3)C1)C2	IIIB		syncytia	>4 µg/mL
Cc1sccc1C(=S)Nc1ccc(Cl)c(OCCC(C)C)c1		RT-K103N	syncytia	0.262 µM
CCCCCCCCCCCCNC(=O)c1ccccc1SSc1ccccc1C(=O)NCCCCCCCCCCCC			cytopathic effect / XTT	16 µM
CC(C)=CCOc1cc(NC(=S)c2ccoc2C)ccc1Cl		RT-Y181C	syncytia	0.045 µM
C[Si](C)(C)C#CC1=C(C(=O)OCC2CCCCC2)C(c2cccc(O)c2)NC(=O)N1			p24 / ELISA	>1 µM
Cc1ccc(C)c(CS(=O)(=O)c2cccc[n+]2[O-])c1	IIIB	RT-K103N	syncytia	11 µg/mL
CC(C)OC(=O)c1cc(NC(=S)c2ccccc2N)ccc1Cl		RT-L100I	syncytia	13 µM
CCC1=C(C(=O)OCC2CCCCC2)C(c2cccc(C(=O)OC)c2)NC(=O)N1			p24 / ELISA	≤1 µM
Cc1occc1C(=S)Nc1ccc(Cl)c(OCC(=O)OC(C)(C)C)c1		RT-L100I	syncytia	1.6 µM
O=[N+]([O-])c1ccc[n+]([O-])c1SCc1ccccc1	IIIB	RT-K103N	syncytia	9.6 µg/mL
Cc1ccsc1C(=O)Nc1ccc(Cl)c(C(=O)OC2CCCCC2)c1		RT-E138K	syncytia	16 µM
CCOC(=O)c1cc(NC(=O)C2=C(CC)OCCS2)ccc1Cl	TSAO-resistant (RT E138K)	RT-E138K	syncytia	1.9 µg/mL
CC1=C(C(=S)Nc2ccc(Cl)c(C=NOC(C)(C)C)c2)CCCO1		RT-Y188L	syncytia	2.7 µM
COCCOC(=O)c1cc(NC(=O)C2=C(C)OCCS2)ccc1Cl	TSAO-resistant (RT E138K)	RT-E138K	syncytia	>10 µg/mL
CC(C)=CCOc1cc(NC(=S)c2ccsc2C)ccc1Cl		RT-E138K	syncytia	0.017 µM
CCC1=C(C(=O)OCC2CCCCC2)C(c2cc(Cl)c(OC)c(OC)c2)NC(=O)N1			p24 / ELISA	≤1 µM
Cc1cc(S(=O)(=O)Nc2nnc3c4ccccc4cnn23)c(S)cc1Cl	Calanolide-resistant		p24	26.5 µM
CCCCCCCCCC[N+](C)(C)CCCNCc1c(O)cc2c(c1O)-c1cc(ccc1O)[C@H]1NC(=O)[C@@H]3NC(=O)C4NC(=O)[C@@H](Cc5ccc(c(Cl)c5)Oc5cc3cc(c5O)Oc3ccc(cc3Cl)[C@@H](O)[C@H](NC1=O)C(=O)N[C@@H]2C(=O)O)NC(=O)[C@H](N)c1ccc(O)c(c1)Oc1cc(O)cc4c1	RT-K188H	RT-Y188H	syncytia	6 µM
COc1ccccc1C(=S)Nc1ccc(Cl)c(C(=O)OC(C)C)c1		RT-E138K	syncytia	5.3 µM
Cc1ccc(C)c(CS(=O)(=O)c2ccccn2)c1	IIIB	RT-L100I	syncytia	10 µg/mL
CCCNC(=O)c1ccccc1SSc1ccccc1C(=O)NCCC			cytopathic effect / XTT	>19 µM
COCC1=C(C(=O)Nc2ccc(Cl)c(C(=O)OC(C)C)c2)SCCO1	PYR-resistant (RT Y181C)	RT-Y181C	syncytia	>10 µg/mL
Cc1cc(S(=O)(=O)Nc2nnc3c4ccccc4ccn23)c(S)cc1Cl	RF		cytopathic effect / XTT	166 µM
CCCOC(=O)c1ccc(C)c(NC(=O)C2=C(C)OCCS2)c1	PYR-resistant (RT Y181C)	RT-Y181C	syncytia	>10 µg/mL
CC(C)=CCOc1cc(NC(=S)c2ccoc2C)ccc1Cl	IIIB	RT-E103K	syncytia	0.007 µg/mL
CS(=O)(=O)c1ccc(NC(=O)c2ccccc2SSc2ccccc2C(=O)Nc2ccc(S(C)(=O)=O)cc2)cc1			cytopathic effect / XTT	14 µM
Cc1occc1C(=S)Nc1ccc(Cl)c(C(=O)OC2CCCCC2)c1	IIIB		syncytia	0.01 µM
CCC(=O)C1=C(CCC2CCCCC2)NC(=O)N[C@H]1c1ccc(O)c(Cl)c1			p24 / ELISA	>5 µM
C/C=C/COc1cc(NC(=S)c2ccoc2C)ccc1Cl	IIIB		syncytia	0.02 µM
CC1=C(C(=O)Nc2ccc(Cl)c(C(=O)OC3CCCCC3C)c2)SCCO1	PYR-resistant (RT Y181C)	RT-Y181C	syncytia	1.3 µg/mL
Cc1ccoc1C(=S)Nc1ccc(Cl)c(C(=O)OC(C)C)c1		RT-L100I	syncytia	16 µM
CCC1=C(C(=O)OCC2CCCCC2)[C@H](c2cccc(OC(=O)C(C)(C)C)c2)NC(=O)N1			p24 / ELISA	≤1 µM
Cc1ccc(C(C)S(=O)(=O)c2c(C)ccc[n+]2[O-])c(C)c1	IIIB		syncytia	3.4 µg/mL
CCC1=C(C(=O)OCC2CCCCC2)[C@H](c2ccc([NH3+])cc2)NC(=O)N1			p24 / ELISA	≤1 µM
Cc1ccc(C)c(C(C)S(=O)(=O)c2c(C)ccc[n+]2[O-])c1	MN		syncytia	1.4 µg/mL
CC1=C(C(=O)Nc2cc(C(=O)OC(C)C)c(C)cc2F)SCCO1	Nevirapine-resistant (RT V106A)	RT-V106A	syncytia	>10 µg/mL
Cn1cccc1C(=S)Nc1ccc(Cl)c(/C=N/OC(C)(C)C)c1		RT-K103N	syncytia	0.476 µM

Neighbouring rows are from separate reports. ECn is the concentration giving n% inhibition of infection, replication or growth.